Experimental data: PubChem BioAssay AID1259414 (Drosophila RNAi Screening Center, 2018)
Screen: 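Fly genes that alter Wolbachia amount inside host cells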 (primary screen). Cell system: Drosophila JW18 cells infected with Wolbachia. Reagents: long dsRNA against Drosophila genes, 0.25 µg dsRNA per well of a 384-well plate. Duration: 5 days. Conditions: cells persistently infected with Wolbachia before knock-down; no added drug. Measurement: 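Imaged fluorescence in situ signal for Wolbachia 23S rRNA per DAPI-counted host cell, given as a robust z-score within each plate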. Scale: Wolbachia per cell robust z: higher = more Wolbachia per host cell than the plate typical. Hit rule: 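Hit when robust z is 1.5 or more, or -1.5 or less, in at least two of three replicates; excludes dsRNAs with several or no targets, genes not expressed in JW18 and well A1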.
The screen tested about 24,000 reagents; below is an unselected part of those that have a named target and a result. Of all reagents, about 1,210 (5%) were called active. 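Inactive calls also include excluded dsRNAs with several or no targets, genes unexpressed in JW18, and well A1, regardless of score.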 A number with no mark means an inactive call. A plus sign joins genes that one reagent is predicted to hit.

{"Target gene":"CG6959","DRSC id":"DRSC16151","Wolbachia per cell robust z, rep 1":-0.829,"Wolbachia per cell robust z, rep 2":-0.0229,"Wolbachia per cell robust z, rep 3":-1.66}
{"Target gene":"CG14933 + CG42486","DRSC id":"DRSC02415","Wolbachia per cell robust z, rep 1":1.04,"Wolbachia per cell robust z, rep 2":-1.1,"Wolbachia per cell robust z, rep 3":-0.277}
{"Target gene":"CG7296","DRSC id":"DRSC03042","Wolbachia per cell robust z, rep 1":-1.19,"Wolbachia per cell robust z, rep 2":-1.5,"Wolbachia per cell robust z, rep 3":-0.718}
{"Target gene":"CG7296","DRSC id":"DRSC22343","Wolbachia per cell robust z, rep 1":-1.05,"Wolbachia per cell robust z, rep 2":0.238,"Wolbachia per cell robust z, rep 3":-1.42}
{"Target gene":"CG7296","DRSC id":"DRSC25754","Wolbachia per cell robust z, rep 1":-0.857,"Wolbachia per cell robust z, rep 2":0.235,"Wolbachia per cell robust z, rep 3":-0.654}
{"Target gene":"CG42658","DRSC id":"DRSC41387","Wolbachia per cell robust z, rep 1":0.0517,"Wolbachia per cell robust z, rep 2":-0.706,"Wolbachia per cell robust z, rep 3":-1.83}
{"Target gene":"CG9368","DRSC id":"DRSC11067","Wolbachia per cell robust z, rep 1":0.323,"Wolbachia per cell robust z, rep 2":0.687,"Wolbachia per cell robust z, rep 3":0.62}
{"Target gene":"CG9368","DRSC id":"DRSC24280","Wolbachia per cell robust z, rep 1":-0.291,"Wolbachia per cell robust z, rep 2":-1.39,"Wolbachia per cell robust z, rep 3":-1.04}
{"Target gene":"Rab35","DRSC id":"DRSC20691","Wolbachia per cell robust z, rep 1":"1.1 (active)","Wolbachia per cell robust z, rep 2":2.03,"Wolbachia per cell robust z, rep 3":1.66}
{"Target gene":"Rab35","DRSC id":"DRSC26739","Wolbachia per cell robust z, rep 1":-5.5,"Wolbachia per cell robust z, rep 2":-3.81,"Wolbachia per cell robust z, rep 3":-6.91}
{"Target gene":"Gmer (GDP-4-keto-6-deoxy-D-mannose 3,5-epimerase/4-reductase)","DRSC id":"DRSC04376","Wolbachia per cell robust z, rep 1":0.384,"Wolbachia per cell robust z, rep 2":0.835,"Wolbachia per cell robust z, rep 3":0.634}
{"Target gene":"Gmer (GDP-4-keto-6-deoxy-D-mannose 3,5-epimerase/4-reductase)","DRSC id":"DRSC28925","Wolbachia per cell robust z, rep 1":0.337,"Wolbachia per cell robust z, rep 2":0.827,"Wolbachia per cell robust z, rep 3":0.849}
{"Target gene":"CG12061","DRSC id":"DRSC20715","Wolbachia per cell robust z, rep 1":-0.634,"Wolbachia per cell robust z, rep 2":-1.3,"Wolbachia per cell robust z, rep 3":0.0108}
{"Target gene":"CG14983","DRSC id":"DRSC08441","Wolbachia per cell robust z, rep 1":-0.816,"Wolbachia per cell robust z, rep 2":-1.13,"Wolbachia per cell robust z, rep 3":-1.65}
{"Target gene":"CG14983","DRSC id":"DRSC26428","Wolbachia per cell robust z, rep 1":0.352,"Wolbachia per cell robust z, rep 2":0.433,"Wolbachia per cell robust z, rep 3":1.95}
{"Target gene":"CG9915","DRSC id":"DRSC20217","Wolbachia per cell robust z, rep 1":-0.651,"Wolbachia per cell robust z, rep 2":0.762,"Wolbachia per cell robust z, rep 3":0.747}
{"Target gene":"CG9915","DRSC id":"DRSC21565","Wolbachia per cell robust z, rep 1":-0.386,"Wolbachia per cell robust z, rep 2":-0.714,"Wolbachia per cell robust z, rep 3":0.473}
{"Target gene":"CG9915","DRSC id":"DRSC27327","Wolbachia per cell robust z, rep 1":0.266,"Wolbachia per cell robust z, rep 2":-0.588,"Wolbachia per cell robust z, rep 3":0.031}

2 consecutive records already listed, for reference:
{"Target gene":"CG9915","DRSC id":"DRSC20217","Wolbachia per cell robust z, rep 1":-0.651,"Wolbachia per cell robust z, rep 2":0.762,"Wolbachia per cell robust z, rep 3":0.747}
{"Target gene":"CG9915","DRSC id":"DRSC21565","Wolbachia per cell robust z, rep 1":-0.386,"Wolbachia per cell robust z, rep 2":-0.714,"Wolbachia per cell robust z, rep 3":0.473}
